Values after ≈ are worked out from the molar mass of the structure shown.
Test system: E. coli O157:H7 (EEU 396)
Assay: Minimum inhibitory concentration (NCCLS M7-A2) for E. coli O157:H7
Assay type: cell-based
Details: E. coli O157:H7 (EEU396); for MIC: Escherichia coli

C=CC1=C(C(=O)O)N2C(=O)[C@@H](NC(=O)/C(=N\OCC(=O)O)c3csc(N)n3)[C@H]2SC1 [Cefixime]
MIC: 4.8 mg/L (≈ 10.6 µM)

O=C(O)c1cn(C2CC2)c2cc(N3CCNCC3)c(F)cc2c1=O [Ciprofloxacin]
MIC: 0.192 mg/L (≈ 0.579 µM)

CO[C@@]12[C@H](COC(N)=O)C3=C(C(=O)C(C)=C(N)C3=O)N1C[C@@H]1N[C@@H]12 [Mitomycin-C]
Minimum Inhibitory Concentration: 9.6 µg/mL

CN(C)[C@@H]1C(O)=C(C(N)=O)C(=O)[C@@]2(O)C(O)=C3C(=O)c4c(O)cccc4[C@@](C)(O)[C@H]3C[C@@H]12 [Tetracycline]
MIC: 1.92 mg/L (≈ 4.32 µM)

Source: US20010018065A1, “Compounds and methods for the treatment of bacterial dysentery using antibiotics and toxin binding oligosaccharide compositions” (priority 1998, published 2001)
